Source: patent publication EP2769723A1, “Compounds for use in inhibiting HIV capsid assembly” (priority 2013, dated 2014)
pIC50: −log10 of the molar value. Counter-ions that a name gives are not always drawn.

system: wild type NL4.3 HIV-1; assay: Tissue culture infectivity test, TZM titration of supernatants from infected TZM cells; type: cell-based; conditions: Table 5, based on the TZM titration, tested form: HCl
Description: Hits selected in the YFP-screen were further evaluated in the tissue culture experiments with cells infected with the wild type NL4.3 HIV-1. The virus for infection was obtained from co-culture of MT4 cells. The MT4 cells co-culture was synchronized for one week and then used for the infection of fresh MT 4 cells. 48 hrs post-infection was the culture supernatant harvested, cleared by the filtration through […] filter and stored in -80 °C in 1 ml aliquots. Amount of virus was quantified by enzyme-linked immuno sorbent assay (ELISA) with antibodies against HIV-1 CA (3 ng of CA/ml) and blue cell assay (1x10^5 IU/ml), which gives 3 x 10^4 IU/ng of CA.
For compounds testing the TZM cells were seeded on 96-well plate in the density 5 x 10^3 cells per well. The culture media was aspirated approx. 16 hrs later and cells were infected by the wild type NLA.3 HIV-1 by addition of 50J..il of prepared virus stock diluted with 50 µl of complete DMEM. The compounds were added twice to ensure that there are not any preassembled viruses present at the time of their addition. […]
TZM titration was performed on the cells seeded day before on 96-well plate in the density 5 x 10^3 cells per well. […] The luminescence signal was measured on Luminoskan Ascent (Thermo Labsystems) after the transfer of 80 µl of lysate to the flat bottom white polystyrene assay plates (Costar).

Compound	pIC50
c1cncc(-c2nc(Nc3ccc4[nH]nnc4c3)c3ccccc3n2)c1 [AMR.325]	5.06

molecular target: CA (Human immunodeficiency virus type 1 group M subtype B, UniProt P12493); assay: ALPHA screen (AlphaScreen): inhibition of CAI binding to CA; conditions: read-out: α screen IC50; CAI-biotin peptide / CA-GST; compounds screened at 0.5-100 µM; tested form: 2HCl
Description: The AlphaScreen experiments are performed using Perkin Elmer Enspire plate reader in white 96-well ProxiPlates and PBS supplemented with 0.05% Tween20, 2mM DTT, 2% DMSO. First, Streptavidin-coated Donor beads are used to capture the CAI-biotin peptide. In the other solution, a fusion protein of CA with glutathione-S-transferase (CA-GST) is mixed with GSH Acceptor beads. Both mixtures were incubated and then mixed together. To test the ability of prepared organic compounds to inhibit the CAI binding to CA, they are screened at concentrations between 0.5-100 µM and IC50 values are calculated from the influenced signals.
Upon illumination by laser at 680 nm, Donor beads containing the photosensitizer phthalocyanine convert ambient oxygen to an excited form of singlet oxygen ^1O2. Singlet oxygen can within its half-life of ~ 4 µs diffuse approximately 200 nm in solution. If an Acceptor bead is within that proximity, which is mostly upon CA:CAI interaction, energy is transferred from the singlet oxygen to thioxene derivates within the Acceptor and signal at 520 - 620 nm is emitted.

Compound	pIC50
c1ccc2c(NCCCn3ccnc3)nc(-c3ccncc3)nc2c1 [AMR.347]	< 3.70

same assay, conditions: read-out: α screen IC50; CAI-biotin peptide / CA-GST; compounds screened at 0.5-100 µM; tested form: HCl

Compound	pIC50
CCOC(=O)c1ccc(Nc2nc(-c3cccnc3)nc3ccccc23)cc1	4.85
c1cncc(-c2nc(Nc3ccc4[nH]nnc4c3)c3ccccc3n2)c1 [AMR.325]	5.72
COc1ccc(Nc2nc(-c3cccnc3)nc3ccccc23)cc1OC [AMR.328]	< 3.70
c1ccc2c(NCCCn3ccnc3)nc(-c3ccncc3)nc2c1 [AMR.347]	3.82
CN(C)c1ccc(Nc2nc(-c3cccnc3)nc3ccccc23)cc1 [AMR.357]	4.18
CN(C)c1ccc(Nc2nc(-c3cccnc3)nc3ccccc23)cc1 [AMR.378 .HCl]	4.61
CN(C)c1cccc(Nc2nc(-c3cccnc3)nc3ccccc23)c1 [AMR.379]	4.52
CN(C)c1ccc(Nc2nc(-c3ccc(Cl)cc3Cl)nc3ccccc23)cc1 [AMR.402]	4.54
O=[N+]([O-])c1ccc(Nc2nc(-c3ccncc3)nc3ccccc23)c(F)c1 [AMR.424]	5.72
O=[N+]([O-])c1ccc(Nc2nc(-c3ccncc3)nc3ccccc23)c(F)c1 [AMR.448]	5.59
Cn1nnc2ccc(Nc3nc(-c4ccncc4)nc4ccccc34)cc21 [AMR.479-MAT]	3.91
Cn1nnc2ccc(Nc3nc(-c4ccncc4)nc4ccccc34)cc21 [AMR.479]	4.27
